What all share (assay): cell-based or functional assay
Assay [1] deals with SARS-CoV-2 spike protein, Omicron variant BA.4/5 (SARS-CoV-2).
The target of assay [2] is SARS-CoV-2 spike protein, Omicron variant BQ.1 (SARS-CoV-2).
Assay [3] addresses SARS-CoV-2 spike protein, Omicron variant BQ.1.1 (SARS-CoV-2).
Assay [4] concerns the target SARS-CoV-2 spike protein, Omicron variant BA.2.75.2 (SARS-CoV-2).
The target in assay [5] is SARS-CoV-2 spike protein, Omicron variant XBB (SARS-CoV-2).
For assay [6], the target named is SARS-CoV-2 spike protein, Delta variant (SARS-CoV-2).
The target in assay [7] is SARS-CoV-2 spike (S) protein of Omicron sublineage BA.2.75 (G446S) (SARS-CoV-2, UniProt P0DTC2 14-1273).
Assay [8] has as its target SARS-CoV-2 spike (S) protein of Omicron sublineage BJ.1 (R346T, V445P, G446S) (SARS-CoV-2, UniProt P0DTC2 14-1273).
Assay [9] has as its target SARS-CoV-2 spike protein, Omicron variant (B.1.1.529) (SARS-CoV-2, UniProt P0DTC2 14-1273).

B1: MX1071 (other)
chain 1: EIVLTQSPGTLSLSPGETATLSCRASQSFSSDLAWYQQKPGQAPRLLIYGASSRATGIPDRFSGSGSGTDFTLTISRLEPADFAVYYCQQYGSSPPVTFGGGTKVEIKGGSSGQTVVTQEPSFSVSPGGTVTLTCGLSSGSVSTAYFPSWYQQTPGQAPRTLIYGTNTRSSGVPDRFSGSILGNKAALTITGAQADDESDYYCVLYMGRGIVVFGGGTKLTVLGGGGSGGSGSGGGGSASGSGQVQLVESGGGVVQPGRSLRLSCAASGFTLSSYGMHWVRQAPGKGLEWVAVISYDGSNKYYVDSVKGRFTISRDNSKNTLYLQMNSLRAEDTAVYYCRWAYWELLPDYYYGMDVWGQGTTVTVSSGGSSGEVQLVESGGGLIQPGGSLRLSCAASGVIVSYNYMNWVRQAPGKGLEWVSVIYSGGSTFYADSVRGRFTISRDNSKNTLYLQMNSLRAEDTAVYYCARDLGPAGAFDIWGLGTMVTVSSASGGSGDKTHTCPPCPAPELLGGPSVFLFPPKPKDTLMISRTPEVTCVVVDVSHEDPEVKFNWYVDGVEVHNAKTKPREEQYNSYVVSVLTVLHQDWLNGKEYKCKVSNKALPAPIEKTISKAKGQPREPQVYTLPPCRDELTKNQVSLWCLVKGFYPSDIAVEWESNGQPENNYKTTPPVLDSDGSFFKKLTVDKSRWQQGNVFSCSVLHEALHSHYTQKSLSLSPG
chain 2: EIVLTQSPGTLSLSPGETATLSCRASQSFSSDLAWYQQKPGQAPRLLIYGASSRATGIPDRFSGSGSGTDFTLTISRLEPADFAVYYCQQYGSSPPVTFGGGTKVEIKGGSSGDTVMTQSPLSLPVTPGEPASISCRSSQSLLNSNGYNYLDWYVQKPGQSPQLLIYLGSNRASGVPDRFSGSGSGTDFTLKISRVEAEDVGVYYCMQPLQTPLFTFGPGTKVEIKGGGGSGGSGSGGGGSASGSGQVTLRESGPALVKPTQTLTLTCTFSGFSLSTRGVCVSWIRQPPGKALEWLAFIDWDDDKYYNTSLKTRLTISKDTSKNQVVLTMTNVHPVDTATYYCARISSHHGSSWCTTFDYWGQGALVTVSAGGSSGEVQLVESGGGLIQPGGSLRLSCAASGVIVSYNYMNWVRQAPGKGLEWVSVIYSGGSTFYADSVRGRFTISRDNSKNTLYLQMNSLRAEDTAVYYCARDLGPAGAFDIWGLGTMVTVSSASGGSGDKTHTCPPCPAPELLGGPSVFLFPPKPKDTLMISRTPEVTCVVVDVSHEDPEVKFNWYVDGVEVHNAKTKPREEQYNSYVVSVLTVLHQDWLNGKEYKCKVSNKALPAPIEKTISKAKGQPREPQVCTLPPSRDELTKNQVSLSCAVKGFYPSDIAVEWESNGQPENNYKTTPPVLDSDGSFFLVSKLTVDKSRWQQGNVFSCSVLHEALHSHYTQKSLSLSPG
On to B1, for which the “IC50, pseudovirus neutralization” value in assay [1] was determined as 5.77 ng/mL; in assay [2] it was 4.38 ng/mL; in [3], 16.6 ng/mL; in assay [4], 3.1 ng/mL; in [5] it was 3.81 ng/mL; in [6], 9.19 ng/mL. In addition, the “IC80, pseudovirus neutralization” value in assay [1] stood at 15.4 ng/mL; in assay [2], 33.2 ng/mL; in assay [3], 52.7 ng/mL; in assay [4], 7.72 ng/mL; in assay [5], 10.1 ng/mL; in assay [6] it was 47.1 ng/mL.

B2: MX834 tetravalent, trispecific antibody (A23-58H/A23-58L93VGLTG, A19-46, A23-58H/A23-58L93VGLTG, A19-61) (trispecific antibody)
chain 1: QTVVTQEPSFSVSPGGTVTLTCGLSSGSVSTAYFPSWYQQTPGQAPRTLIYGTNTRSSGVPDRFSGSILGNKAALTITGAQADDESDYYCVLYMGRGIVVFGGGTKLTVLGGSSGEIVLTQSPGTLSLSPGERATLSCRASQSVSSSYLAWYQQKPGQAPRLLIYSASSRATGIPDRFSGSGSGTDFTLTISRLEPEDFAVYFCQQYVGLTGWTFGQGTKVEIKGGGGSGGSGSGGGGSASGSGQMQLVQSGPEVKKPGTSVKVSCKASGFTFTSSAVQWVRQRQRLEWIGWIVVGSGNTNYAQKFQERVTITRDMSTSTAYMELSSLRSEDTAVYYCAAPNCSNVVCYDGFDIWGQGTMVTVSSGGSSGQVQLVESGGGVVQPGRSLRLSCAASGFTLSSYGMHWVRQAPGKGLEWVAVISYDGSNKYYVDSVKGRFTISRDNSKNTLYLQMNSLRAEDTAVYYCRWAYWELLPDYYYGMDVWGQGTTVTVSSASGGSGDKTHTCPPCPAPELLGGPSVFLFPPKPKDTLMISRTPEVTCVVVDVSHEDPEVKFNWYVDGVEVHNAKTKPREEQYNSYVVSVLTVLHQDWLNGKEYKCKVSNKALPAPIEKTISKAKGQPREPQVYTLPPCRDELTKNQVSLWCLVKGFYPSDIAVEWESNGQPENNYKTTPPVLDSDGSFFKKLTVDKSRWQQGNVFSCSVLHEALHSHYTQKSLSLSPG
chain 2: QTVVTQEPSFSVSPGGTVTLTCGLSSGSVSTAYFPSWYQQTPGQAPRTLIYGTNTRSSGVPDRFSGSILGNKAALTITGAQADDESDYYCVLYMGRGIVVFGGGTKLTVLGGSSGEIVLTQSPGTLSLSPGERATLSCRASQSVSSSYLAWYQQKPGQAPRLLIYSASSRATGIPDRFSGSGSGTDFTLTISRLEPEDFAVYFCQQYVGLTGWTFGQGTKVEIKGGGGSGGSGSGGGGSASGSGQMQLVQSGPEVKKPGTSVKVSCKASGFTFTSSAVQWVRQRQRLEWIGWIVVGSGNTNYAQKFQERVTITRDMSTSTAYMELSSLRSEDTAVYYCAAPNCSNVVCYDGFDIWGQGTMVTVSSGGSSGQVQLVESGGGVVQPGRSLRLSCAASGFTLSSYGMHWVRQAPGKGLEWVAVISYDGSNKYYVDSVKGRFTISRDNSKNTLYLQMNSLRAEDTAVYYCRWAYWELLPDYYYGMDVWGQGTTVTVSSASGGSGDKTHTCPPCPAPELLGGPSVFLFPPKPKDTLMISRTPEVTCVVVDVSHEDPEVKFNWYVDGVEVHNAKTKPREEQYNSYVVSVLTVLHQDWLNGKEYKCKVSNKALPAPIEKTISKAKGQPREPQVYTLPPCRDELTKNQVSLWCLVKGFYPSDIAVEWESNGQPENNYKTTPPVLDSDGSFFKKLTVDKSRWQQGNVFSCSVLHEALHSHYTQKSLSLSPG
For the molecule B2, the “IC50, pseudovirus neutralization” value was found to be 1 nM in assay [7] and 3 nM in assay [8]. The entries for the “IC80, pseudovirus neutralization” value in assay [7] and in assay [8] were 2 nM and 87 nM, respectively.

B3: MX829 tetravalent, bispecific antibody (two VH/VL pairs of A19-61 and two VH/VL pairs of A23-58H/A23-58L93VGLTG) (bispecific antibody)
chain: DIQMTQSPSSVSASVGDRVIITCRASQGISSWLAWYQQKPGKAPKVLIYDASSLQSGVPSRFSGSGYGTDFTLTISSLQPEDSATYYCQQAKSFPITFGQGTRLEIKGGSSGEIVLTQSPGTLSLSPGERATLSCRASQSVSSSYLAWYQQKPGQAPRLLIYSASSRATGIPDRFSGSGSGTDFTLTISRLEPEDFAVYFCQQYVGLTGWTFGQGTKVEIKGGGGSGGSGSGGGGSASGSGQMQLVQSGPEVKKPGTSVKVSCKASGFTFTSSAVQWVRQRQRLEWIGWIVVGSGNTNYAQKFQERVTITRDMSTSTAYMELSSLRSEDTAVYYCAAPNCSNVVCYDGFDIWGQGTMVTVSSGGSSGQVQLVESGGGVVQPGRSLRLSCAASGFTFSSYAFHWVRQAPGKGLEWVAVISYDGSNQYYADSVKGRFTISRDNSKNTLYLQMNSLRADDTAVYYCARDLAIAVAGTWHYYNGMDVWGQGTTVTVSSASGGSGDKTHTCPPCPAPELLGGPSVFLFPPKPKDTLMISRTPEVTCVVVDVSHEDPEVKFNWYVDGVEVHNAKTKPREEQYNSYVVSVLTVLHQDWLNGKEYKCKVSNKALPAPIEKTISKAKGQPREPQVYTLPPSRDELTKNQVSLTCLVKGFYPSDIAVEWESNGQPENNYKTTPPVLDSDGSFFKKLTVDKSRWQQGNVFSCSVLHEALHSHYTQKSLSLSPG
With B3, in assay [7], the “IC50, pseudovirus neutralization” value stood at 1 nM and the “IC80, pseudovirus neutralization” value stood at 3 nM. Also, in assay [8], the “IC50, pseudovirus neutralization” value was 16 nM and the “IC80, pseudovirus neutralization” value came out at 113 nM.

B4: A23-58.1HC/58.1LC_93VGLTG (antibody, V domains shown)
VH: QMQLVQSGPEVKKPGTSVKVSCKASGFTFTSSAVQWVRQRQRLEWIGWIVVGSGNTNYAQKFQERVTITRDMSTSTAYMELSSLRSEDTAVYYCAAPNCSNVVCYDGFDIWGQGTMVTVSS
VL: EIVLTQSPGTLSLSPGERATLSCRASQSVSSSYLAWYQQKPGQAPRLLIYSASSRATGIPDRFSGSGSGTDFTLTISRLEPEDFAVYFCQQYVGLTGWTFGQGTKVEIK
B4: in [9], the “IC50, pseudovirus neutralization” value is 3.3 nM and the “IC80, pseudovirus neutralization” value came to 11.2 nM.

(Values after patent publication US20240109955A1 (published 2024).)
